# According to publication PMC11436758, “Computer-aided drug design to generate a unique antibiotic family” (Nature Communications, 2024):
# The chains behind the UniProt entries cited, without tags or fusion partners. Residues count along the entry.
# UniProt P24224, 2-126 limits assumed: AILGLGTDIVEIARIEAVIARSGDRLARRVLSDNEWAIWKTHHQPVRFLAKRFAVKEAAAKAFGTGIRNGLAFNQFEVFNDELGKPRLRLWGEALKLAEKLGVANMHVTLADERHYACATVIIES
# How the values were obtained:
# AcpS = AcpS (Escherichia coli, UniProt P24224); assay: AcpS enzyme activity inhibition (IC50) by DNM compounds, [3H]acetyl-CoA / apo-ACP assay; details: read-out: AcpS IC50, three individual replicates
# MRSA (ATCC 33591) = assay: MIC, CLSI broth microdilution; assay type: cell-based, S. aureus; details: three individual replicates
smiles,measurement,setting,value
Clc1ccc(Cc2cc(-c3nnn[nH]3)sc2-c2ccc(Cl)cc2)cc1,IC50,AcpS,14 µM
same,MIC,MRSA (ATCC 33591),1 g/ml
CC(C)c1cc(Cl)ccc1-c1cc(-c2nnn[nH]2)sc1[C@@H]1CCCc2ccccc21,IC50,AcpS,10 µM
same,MIC,MRSA (ATCC 33591),2 g/ml
Cc1c(-c2nnn[nH]2)sc(-c2ccc(Cl)cc2)c1-c1ccc(Cl)cc1,IC50,AcpS,14 µM
same,MIC,MRSA (ATCC 33591),1 g/ml
